## PSTVd stem 26 mutant pool in Nicotiana benthamiana

Data from the supplement of Wu et al. 2024, doi:10.1371/journal.ppat.1012142.

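A pool of all variants was put on leaves of three Nicotiana benthamiana plants. Samples came from the inoculated region at 5 days, the leaf margin at 10 and upper systemic leaves at 12.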

Region: stem 26 of PSTVd (intermediate strain), upper and lower strand joined, each 5' to 3', the first 5 letters being the upper strand. Wild type: AGGGUACCCU. Varied positions (N): AGGGUNNCNN.

Values are reads per thousand in the sample; higher means more abundant, 0 means not found.
Each value is the mean of three plants.
"Pool" is the share in the plasmid pool used as inoculum, on the same scale.
The inoculated region was read from the minus strand, the other sites from the plus strand.
Samples held 23,251 to 70,159 reads, so the smallest values rest on one or two reads.
For reference, wild type rose from 44.9 per thousand in the pool to 297, 323, 447 (inoculated region), 793, 829, 846 (leaf margin) and 974, 853, 877 (systemic leaves).
The authors trace changes outside the varied positions to PCR and sequencing errors or to mutation in the plant; presence does not show that a variant is infectious alone.

With AGGGUUCCUC (pool 4.36) the assay gave inoculated region 3.11; leaf margin 0.673; systemic leaves 0.341. AGGGUGACGG (pool 5.07) read inoculated region 2.25; leaf margin 0; systemic leaves 0.00475. AGGGUUGCAC (pool 3.62) read inoculated region 1.02; leaf margin 0.00871; systemic leaves 0. With AGGGUCUCAA (pool 2.98) the assay gave inoculated region 0.627; leaf margin 0; systemic leaves 0. For AGGGUGCCGA (pool 2.73) the result was inoculated region 0.788; leaf margin 0.0173; systemic leaves 0. With AGGGUGCCGC (pool 3.26) the assay gave inoculated region 2.75; leaf margin 0.781; systemic leaves 0.336. For GGGGUGACUU (pool 0.0493) the result was inoculated region 0; leaf margin 0; systemic leaves 0.

With AGGGUUGCCG (pool 5.35) the assay gave inoculated region 2.21; leaf margin 0.446; systemic leaves 0. AGGGUUUUCU (pool 0.0329) read inoculated region 0.0222; leaf margin 0; systemic leaves 0. AGGGUCGCCG (pool 3.55) read inoculated region 1.07; leaf margin 0; systemic leaves 0. With AGGGUACCCU (pool 44.9) the assay gave inoculated region 356; leaf margin 823; systemic leaves 901. AGGGUGGCCA (pool 3.45) gave inoculated region 0.927; leaf margin 0.00992; systemic leaves 0. With AGGGUAUCAA (pool 2.86) the assay gave inoculated region 0.756; leaf margin 0; systemic leaves 0. AGGGUCGCAU (pool 4.00) read inoculated region 1.60; leaf margin 0.0198; systemic leaves 0.0110.

AGGGUUGCUU (pool 3.40) read inoculated region 1.23; leaf margin 0.252; systemic leaves 0.0428. For AGGGUAACCC (pool 0.0493) the result was inoculated region 0.251; leaf margin 0.00871; systemic leaves 0.00475. For GGUUUAACUU (pool 0.806) the result was inoculated region 0.466; leaf margin 0.0992; systemic leaves 0. AGGGUUCCGG (pool 2.85) gave inoculated region 0.561; leaf margin 0; systemic leaves 0. AGGGUUAACC (pool 0.0329) gave inoculated region 0.0166; leaf margin 0; systemic leaves 0.00551. With AGGGUUGACC (pool 0.0329) the assay gave inoculated region 0.00788; leaf margin 0; systemic leaves 0. AGGGUGGCCG (pool 3.67) gave inoculated region 1.29; leaf margin 0.00742; systemic leaves 0.

AGGGUAACGG (pool 2.85) gave inoculated region 0.788; leaf margin 0.00871; systemic leaves 0.00551. AGGGUGUCUA (pool 3.49) read inoculated region 2.21; leaf margin 1.94; systemic leaves 0.754. AGGGUAACCU (pool 4.57) read inoculated region 3.20; leaf margin 1.77; systemic leaves 0.553. With AGGGUAGCUG (pool 4.03) the assay gave inoculated region 2.26; leaf margin 0; systemic leaves 0. ACGGUACCCA (pool 0.0329) gave inoculated region 0.0540; leaf margin 0.00992; systemic leaves 0. For AGGGUUUACA (pool 0.0493) the result was inoculated region 0.00788; leaf margin 0; systemic leaves 0. For AGGGUAACAU (pool 4.10) the result was inoculated region 1.37; leaf margin 0.0719; systemic leaves 0.0543.

AGGGUCCCGA (pool 3.67) read inoculated region 1.34; leaf margin 0; systemic leaves 0.

Excerpt, the final 4 entries:

| sequence | pool | inoculated region | leaf margin | systemic leaves |
|---|---|---|---|---|
| ACGGUACCCA | 0.0329 | 0.0540 | 0.00992 | 0 |
| AGGGUUUACA | 0.0493 | 0.00788 | 0 | 0 |
| AGGGUAACAU | 4.10 | 1.37 | 0.0719 | 0.0543 |
| AGGGUCCCGA | 3.67 | 1.34 | 0 | 0 |